For orientation: inhibition means the drop in the measured response relative to a control, in per cent.

Each structure is given as a SMILES string. This is a selection; strong and weak results do not stand in their true shares. Calls of active or inactive are those of the source.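 Rule for the calls: active = inhibition above the screen-wide mean plus 3 SD (cut at about 13% in these data); inactive = the rest.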

This assay deals with HIV-1 integrase (with human LEDGF/p75). As to the kind of experiment: blockers of LEDGF/p75-dependent integrase strand transfer – biochemical, TR-FRET, high throughput, primary screen (AID 743269).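 Note: signal is the Cy5 over europium emission ratio at 671 and 618 nm; 0% = plate median of compound wells.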 Conditions: TR-FRET IN-LEDGF/p75 DNA integration, Eu/Cy5; at 3.7 µM; hits give high values.
`O=P1(Nc2ccc(Br)cn2)COc2ccccc2OC1`: the inhibition is inactive: 0.31%.

On to `NS(=O)(=O)c1cccc(NC(=O)COC(=O)C(O)(c2ccccc2)c2ccccc2)c1`, for which the inhibition is inactive: 0.96%.

`O=[As](O)(c1cccs1)c1cccs1`: the inhibition is inactive: -1.86%.

As for `Cc1ccc(OCC(=O)OC2CN3CCC2CC3)cc1` (stereo not given), the inhibition is inactive: 1.64%.

In the case of `Nc1cccc([As](=O)(O)c2ccccc2)c1`, the inhibition is inactive: 3.71%.

With `CC1CCNP(=O)(N(CCCl)CCCl)O1` (stereo not given), the inhibition is inactive: 3.88%.

In the case of `CCOC(=O)Nc1ccc([As](=O)(O)O)c(O)c1`, the inhibition is inactive: -5.22%.

For `O=C(O)C(O)c1ccc(N(CCCl)CCCl)cc1` (stereo not given), the inhibition was inactive: 3.97%.

For `CCCCOc1ccc(C(=O)NCC2(N3CCCCC3)CCCCC2)cc1OC`, the inhibition is inactive: 0.16%.

In the case of `Cc1cc(SC(NC(=O)c2ccccc2)C(Cl)(Cl)Cl)nc(C(C)C)n1` (stereo not given), the inhibition is inactive: 0.68%.

Regarding `COP(=O)(OC)N1CC1c1ccccc1` (stereo not given), the inhibition is inactive: 3.65%.

As to `CCOC(=O)Nc1cccc([As](=O)(O)O)c1`, the inhibition is inactive: 1.91%.

`O=[N+]([O-])c1ccc(Nc2ccc(Oc3ccc([N+](=O)[O-])cc3[N+](=O)[O-])cc2)c([N+](=O)[O-])c1`: the inhibition was inactive: -0.5%.

Take `O=P(Nc1ccccn1)(c1cccc2ccccc12)c1cccc2ccccc12`: the inhibition is inactive: -2.89%.

With `Cc1cc(SC(NC=O)C(Cl)(Cl)Cl)ncn1` (stereo not given), the inhibition is inactive: -3.54%.

Turning to `COP1(=S)c2c(C)nn(CCC#N)c2N=C(c2ccc(F)cc2)N1C` (stereo not given), the inhibition is inactive: -1.69%.

On to `COC(=O)C1(C)COP(=O)(N2CCCC2)OC1` (stereo not given), for which the inhibition was inactive: 2.16%.

On to `O=C(COc1ccccc1)OC1CN2CCC1CC2` (stereo not given), for which the inhibition is inactive: 0.8%.

Take `O=C(Nc1ccncc1[N+](=O)[O-])c1ccc([N+](=O)[O-])cc1[N+](=O)[O-]`: the inhibition is inactive: -0.84%.

Regarding `O=C(O)C(=O)c1ccc(N(CCCl)CCCl)cc1`, the inhibition was inactive: -0.99%.

Turning to `CCOC(=O)c1ccc(NC(=O)C(C)(CCl)SC)cc1` (stereo not given), the inhibition is inactive: 4.77%.

With `O=C(OC1CN2CCC1CC2)c1cccc([N+](=O)[O-])c1` (stereo not given), the inhibition was inactive: -3.72%.

On to `CCC(C)N(CC(C)C)C(=S)SC(NC(C)=O)C(Cl)(Cl)Cl` (stereo not given), for which the inhibition was inactive: 1.59%.

In the case of `O=C(OC1CN2CCC1CC2)C12CC3CC(CC(C3)C1)C2` (stereo not given), the inhibition is inactive: 0.32%.

Regarding `Cc1cc(=O)[nH]c(N[N+](=O)[O-])n1`, the inhibition is inactive: 0.41%.

In the case of `Cc1c2c(nc3ccccc13)SC(C(Cl)Cl)C2` (stereo not given), the inhibition was inactive: -0.27%.

On to `COc1ccc2nc(NP(=O)(c3ccccc3)c3ccccc3)sc2c1`, for which the inhibition was inactive: 3.13%.

For the compound `COc1cc(I)ccc1[As](=O)(O)O`, the inhibition was inactive: 10.1%.

Turning to `O=P1(N(CCCl)CCCl)Nc2ccccc2N1`, the inhibition is inactive: 2.43%.

Regarding `O=P1(N(CCCl)CCCl)OCCCN1CCCl` (stereo not given), the inhibition was inactive: -1.93%.

`COc1ccc(N/C(=N/P(=O)(N2CCOCC2)N2CCOCC2)N2CCOCC2)cc1`: the inhibition is inactive: -4.08%.

Take `O=[N+]([O-])c1cc(Oc2ccc([N+](=O)[O-])cc2C(F)(F)F)cc([N+](=O)[O-])c1`: the inhibition is inactive: -1.73%.

For `O=[As](O)(c1ccc(O)cc1)c1ccccc1O`, the inhibition was inactive: 1.39%.

On to `C[As](=O)(O)c1cccc(C(=O)O)c1`, for which the inhibition is inactive: 0.22%.

In the case of `COc1cc(C(=O)NCC2(N3CCOCC3)CCCCC2)ccc1OCC(C)C`, the inhibition is inactive: 5.12%.

For the compound `O=[N+]([O-])c1ccc(-c2cc([N+](=O)[O-])c(O)c([N+](=O)[O-])c2)cc1`, the inhibition is inactive: 7.95%.

Consider `Cc1ccc2nc3c(c(C)c2c1)CC(C(Cl)Cl)S3` (stereo not given), for which the inhibition was inactive: -1.74%.

For `[N-]=[N+]=NC1CCCCC1NC(=O)c1cc([N+](=O)[O-])cc([N+](=O)[O-])c1` (stereo not given), the inhibition was inactive: -3.48%.

With `Cc1ccc(OP(=O)(Nc2ccc([N+](=O)[O-])cn2)Oc2ccc(C)cc2)cc1`, the inhibition was inactive: -1.89%.

For `CC(C)c1ccc(OP(=O)(Nc2ccccn2)Oc2ccccc2F)cc1` (stereo not given), the inhibition is inactive: -5.81%.

Take `COC(=O)C1(C)COP(=O)(N2CCCCCC2)OC1` (stereo not given): the inhibition is inactive: -2.15%.

In the case of `ClCCSc1nnc(-c2cccnc2)o1`, the inhibition is inactive: -1.24%.

Turning to `O=C(OC1CN2CCC1CC2)c1cccc2[nH]cnc12` (stereo not given), the inhibition was inactive: -2.12%.

For `CCN(CC)C(=S)SC(NC=O)C(Cl)(Cl)Cl` (stereo not given), the inhibition was inactive: -5.87%.

As to `CC(C)NC(=O)NP(=O)(Oc1ccccc1)Oc1ccccc1`, the inhibition was inactive: -0.23%.

Values taken from PubChem BioAssay AID743269 (The Scripps Research Institute Molecular Screening Center, 2014).
